Taken from: PubChem BioAssay AID1259414 (Drosophila RNAi Screening Center, 2018)
Aim: 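Genome-wide screen for host control of endosymbiont load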 (primary screen). Cells: Drosophila JW18 cells infected with Wolbachia. Knock-down reagent: long dsRNA against Drosophila genes, 0.25 µg dsRNA per well of a 384-well plate. Timing: 5 days. Conditions: cells persistently infected with Wolbachia before knock-down; no added drug. Detection: 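Automated imaging of bacterial rRNA staining divided by host cell count, reported as plate-normalised robust z-score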. Scale: Wolbachia per cell robust z: higher = more Wolbachia per host cell than the plate typical. Active means: 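Hit when robust z is 1.5 or more, or -1.5 or less, in at least two of three replicates; excludes dsRNAs with several or no targets, genes not expressed in JW18 and well A1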.
The deposit covers about 24,000 reagents; shown is an unselected part of those that have a named target and a result. Of all reagents, about 1,210 (5%) are marked active. 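Inactive calls also include excluded dsRNAs with several or no targets, genes unexpressed in JW18, and well A1, regardless of score.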 Reagent sequences are not shown.

CG12129 [DRSC06105]: Wolbachia per cell robust z, rep 1 = -1.82; Wolbachia per cell robust z, rep 2 = -0.968; Wolbachia per cell robust z, rep 3 = -0.854; outcome = inactive
jb [DRSC20531]: Wolbachia per cell robust z, rep 1 = -1.55; Wolbachia per cell robust z, rep 2 = -1.29; Wolbachia per cell robust z, rep 3 = -1.46; outcome = inactive
jb [DRSC41529]: Wolbachia per cell robust z, rep 1 = 0.126; Wolbachia per cell robust z, rep 2 = -0.742; Wolbachia per cell robust z, rep 3 = 0.764; outcome = inactive
Mip [DRSC23429]: Wolbachia per cell robust z, rep 1 = 0.637; Wolbachia per cell robust z, rep 2 = -0.138; Wolbachia per cell robust z, rep 3 = 0.0326; outcome = inactive
CG11374 [DRSC00306]: Wolbachia per cell robust z, rep 1 = 0.576; Wolbachia per cell robust z, rep 2 = -1.58; Wolbachia per cell robust z, rep 3 = -0.121; outcome = inactive
Vha16-4 [DRSC07321]: Wolbachia per cell robust z, rep 1 = 0.914; Wolbachia per cell robust z, rep 2 = 0.276; Wolbachia per cell robust z, rep 3 = -0.402; outcome = inactive
CG32436 [DRSC11683]: Wolbachia per cell robust z, rep 1 = -0.47; Wolbachia per cell robust z, rep 2 = 0.421; Wolbachia per cell robust z, rep 3 = 0.312; outcome = inactive
CG32436 [DRSC11796]: Wolbachia per cell robust z, rep 1 = -4.33; Wolbachia per cell robust z, rep 2 = -9.92; Wolbachia per cell robust z, rep 3 = -6.11; outcome = active
CG8925 [DRSC16455]: Wolbachia per cell robust z, rep 1 = 1.22; Wolbachia per cell robust z, rep 2 = 0.956; Wolbachia per cell robust z, rep 3 = 0.321; outcome = inactive
CG8925 [DRSC16456]: Wolbachia per cell robust z, rep 1 = -0.641; Wolbachia per cell robust z, rep 2 = -0.787; Wolbachia per cell robust z, rep 3 = -0.268; outcome = inactive
CG8925 [DRSC16457]: Wolbachia per cell robust z, rep 1 = 0.069; Wolbachia per cell robust z, rep 2 = -0.763; Wolbachia per cell robust z, rep 3 = -0.254; outcome = inactive
CG4168 [DRSC01447]: Wolbachia per cell robust z, rep 1 = -11; Wolbachia per cell robust z, rep 2 = -2.92; Wolbachia per cell robust z, rep 3 = -0.0938; outcome = inactive
CG4168 [DRSC01933]: Wolbachia per cell robust z, rep 1 = 0.704; Wolbachia per cell robust z, rep 2 = -0.547; Wolbachia per cell robust z, rep 3 = 0.112; outcome = inactive
CG4168 [DRSC21319]: Wolbachia per cell robust z, rep 1 = 0.531; Wolbachia per cell robust z, rep 2 = 0.647; Wolbachia per cell robust z, rep 3 = 0.574; outcome = inactive
CG4168 [DRSC22789]: Wolbachia per cell robust z, rep 1 = 0.0837; Wolbachia per cell robust z, rep 2 = -1; Wolbachia per cell robust z, rep 3 = -1.13; outcome = inactive
FRG1 [DRSC10648]: Wolbachia per cell robust z, rep 1 = -1.51; Wolbachia per cell robust z, rep 2 = -0.0846; Wolbachia per cell robust z, rep 3 = 0.0716; outcome = inactive
CG34180 [DRSC38745]: Wolbachia per cell robust z, rep 1 = -1.59; Wolbachia per cell robust z, rep 2 = -0.709; Wolbachia per cell robust z, rep 3 = -1.58; outcome = active
Pgant8 [DRSC10801]: Wolbachia per cell robust z, rep 1 = 0.899; Wolbachia per cell robust z, rep 2 = 0.503; Wolbachia per cell robust z, rep 3 = 1.03; outcome = inactive
Pgant8 [DRSC26909]: Wolbachia per cell robust z, rep 1 = 0.681; Wolbachia per cell robust z, rep 2 = -0.35; Wolbachia per cell robust z, rep 3 = -1.88; outcome = inactive
CG42812 [DRSC15368]: Wolbachia per cell robust z, rep 1 = 0.566; Wolbachia per cell robust z, rep 2 = -1.61; Wolbachia per cell robust z, rep 3 = -0.0521; outcome = inactive
CG15865 [DRSC19733]: Wolbachia per cell robust z, rep 1 = -0.0104; Wolbachia per cell robust z, rep 2 = 0.816; Wolbachia per cell robust z, rep 3 = -0.891; outcome = inactive
CG3163 [DRSC04341]: Wolbachia per cell robust z, rep 1 = -0.167; Wolbachia per cell robust z, rep 2 = -0.0123; Wolbachia per cell robust z, rep 3 = 0.258; outcome = inactive
CG3163 [DRSC28242]: Wolbachia per cell robust z, rep 1 = -1.97; Wolbachia per cell robust z, rep 2 = -0.592; Wolbachia per cell robust z, rep 3 = -1.62; outcome = active
CG7059 [DRSC16187]: Wolbachia per cell robust z, rep 1 = -1.88; Wolbachia per cell robust z, rep 2 = -0.022; Wolbachia per cell robust z, rep 3 = -2.16; outcome = inactive
CG7059 [DRSC28990]: Wolbachia per cell robust z, rep 1 = 0.65; Wolbachia per cell robust z, rep 2 = 0.845; Wolbachia per cell robust z, rep 3 = 0.557; outcome = inactive
CG7059 [DRSC41618]: Wolbachia per cell robust z, rep 1 = 0.905; Wolbachia per cell robust z, rep 2 = 0.593; Wolbachia per cell robust z, rep 3 = 0.292; outcome = inactive
CG7512 [DRSC10863]: Wolbachia per cell robust z, rep 1 = -2.27; Wolbachia per cell robust z, rep 2 = 0.194; Wolbachia per cell robust z, rep 3 = 0.184; outcome = inactive
nAChRalpha6 [DRSC01096]: Wolbachia per cell robust z, rep 1 = -1.57; Wolbachia per cell robust z, rep 2 = -1.44; Wolbachia per cell robust z, rep 3 = -2.88; outcome = inactive
nAChRalpha6 [DRSC02738]: Wolbachia per cell robust z, rep 1 = -2.09; Wolbachia per cell robust z, rep 2 = 0.764; Wolbachia per cell robust z, rep 3 = -1.22; outcome = inactive
Gr28b [DRSC02291]: Wolbachia per cell robust z, rep 1 = 0.439; Wolbachia per cell robust z, rep 2 = 3.76; Wolbachia per cell robust z, rep 3 = 0.00425; outcome = inactive
Gr28b [DRSC02292]: Wolbachia per cell robust z, rep 1 = 0.0905; Wolbachia per cell robust z, rep 2 = 0.852; Wolbachia per cell robust z, rep 3 = 1.46; outcome = inactive
Gr28b [DRSC29459]: Wolbachia per cell robust z, rep 1 = -1.83; Wolbachia per cell robust z, rep 2 = -1.11; Wolbachia per cell robust z, rep 3 = -0.747; outcome = inactive

Entries above whose gene name starts with J or j (2):
jb [DRSC20531]: Wolbachia per cell robust z, rep 1 = -1.55; Wolbachia per cell robust z, rep 2 = -1.29; Wolbachia per cell robust z, rep 3 = -1.46; outcome = inactive
jb [DRSC41529]: Wolbachia per cell robust z, rep 1 = 0.126; Wolbachia per cell robust z, rep 2 = -0.742; Wolbachia per cell robust z, rep 3 = 0.764; outcome = inactive
